Pooled drug test results. Numbers come from NIAID ChemDB, via PubChem.

Common to all: tests in culture

MIC50, MIC90 and the like: level of inhibition, or share of isolates inhibited. Percent inhibition refers to the dose given; in toxicity tests it is the harm to the cells. ECn: concentration that inhibits the pathogen or its effect by n%. Two numbers with a dash give a range or band. An empty or dashed field is not shown. Neighbouring rows are from separate reports.

smiles	agent	strain or isolate	method	conditions	measure	tested at	result
Nc1scc2c1c(=O)oc1ccccc12	Candida guilliermondii		broth dilution		MIC		64 µg/mL
O=C1c2ccccc2CC1Cn1ccnc1	Candida guilliermondii	RTCC 1377	broth dilution		MIC		>64 µg/mL
CCC(C)CC(C)CCCCCCCCC(=O)N[C@H]1C[C@@H](O)[C@H](NCCN)NC(=O)[C@@H]2[C@@H](O)CCN2C(=O)[C@H]([C@H](O)CCN)NC(=O)[C@H]([C@H](O)[C@@H](O)c2ccc(O)cc2)NC(=O)[C@@H]2C[C@@H](O)CN2C(=O)[C@H]([C@@H](C)O)NC1=O	Candida albicans	10 isolates	broth dilution	pH 7	EC90		0.125 µg/mL
COc1ccc(/C=N\O)cc1	Candida lipolytica		broth dilution		MIC100		6620 µM
N=C(N)c1ccc2nc(-c3ccc(-c4nc5ccc(C(=N)N)cc5[nH]4)[nH]3)[nH]c2c1	Candida albicans	Isolate CA1548			MFC		0.78 µg/mL
COc1ccc(-n2cc(C(C)(C)O)nn2)cc1	Candida parapsilosis	URM 4970	broth dilution		MIC		512 µg/mL
CC1CC(=O)N(c2ccc([N+](=O)[O-])cc2)C1=O	Candida lusitaniae	CCC 134-2000	broth dilution / turbidity		MIC		125 µg/mL
COC(=O)[C@H]1[C@@H]2C[C@@H](O[C@@H]3O[C@H](C)[C@@H](O)[C@H](N)[C@@H]3O)/C=C/C=C/C=C/C=C/C=C/C=C/C=C/[C@H](C)[C@@H](O)[C@H](C)[C@H](C)OC(=O)C[C@H](O)C[C@H](O)[C@@H](O)CC[C@H](O)C[C@H](O)C[C@](O)(C[C@@H]1O)O2	Candida albicans	15 isolates	broth dilution	pH 7	EC90		0.5 µg/mL
CCCCCOc1ccc(-c2ccc(-c3ccc(C(=O)N[C@H]4C[C@@H](O)[C@@H](O)NC(=O)[C@@H]5[C@@H](O)[C@@H](C)CN5C(=O)[C@H]([C@H](C)O)NC(=O)[C@H]([C@H](O)[C@@H](O)c5ccc(O)cc5)NC(=O)[C@@H]5C[C@@H](O)CN5C(=O)[C@H]([C@H](C)O)NC4=O)cc3)cc2)cc1	Candida dubliniensis				MIC50		0.015–0.25 µg/mL
O=C(c1ccccc1)C(c1ccccc1)n1cnc2ccccc21	Candida dubliniensis		agar		MIC90		32 µg/mL
COc1ccc(/C=N/O)cc1	Candida famata				MIC100		6620 µM
CC1CC(=O)N(CCc2ccccc2)C1=O	Candida lusitaniae	CCC 134-2000	broth dilution / turbidity		MIC		125 µg/mL
C[C@@H](c1ncncc1F)[C@](O)(Cn1cncn1)c1ccc(F)cc1F	Candida tropicalis	8664	broth dilution		MIC		0.03 µg/mL
O/N=C\c1ccccc1	Candida famata				MIC		4130 µM
C[C@@H](c1ncncc1F)[C@](O)(Cn1cncn1)c1ccc(F)cc1F	Candida guilliermondii		broth dilution		MIC50		0.03 µg/mL
CC[C@@H]([C@H](C)O)n1ncn(-c2ccc(N3CCN(c4ccc(OC[C@@H]5CO[C@@](Cn6cncn6)(c6ccc(F)cc6F)C5)cc4)CC3)cc2)c1=O	Candida kefyr				MIC50		0.008–2 µg/mL
CC(=O)N1CCN(c2ccc(OC[C@H]3CO[C@](Cn4ccnc4)(c4ccc(Cl)cc4Cl)O3)cc2)CC1	Candida glabrata	40 isolates	broth dilution	pH 7	EC90		1 µg/mL
O=[N+]([O-])c1cccc(/C=N\O)c1	Candida lipolytica				MIC100		3010 µM
Cc1ccc(-n2cc(C(C)(C)O)nn2)cc1C	Candida parapsilosis	URM 3627	broth dilution		inhibition	2048 µg/mL	0%
O=C(c1ccccc1)C(c1ccccc1)n1ccnc1	Candida glabrata		broth dilution		MFC		256 µg/mL
CC(C)(O)c1cn(-c2cccc3ccccc23)nn1	Candida parapsilosis	URM 4261	broth dilution		inhibition	2048 µg/mL	0%
O=C(CCn1ccnc1)c1cccc(O)c1	Candida kefyr	RTCC 1074	broth dilution		MIC		64 µg/mL
c1ccc(C(c2ccccc2)n2cncn2)cc1	Candida dubliniensis		broth dilution		MFC		256 µg/mL
O/N=C\c1ccccc1O	Candida famata				MIC100		3600 µM
O=C(CCn1ccnc1)c1ccc(-c2ccccc2)cc1	Candida guilliermondii	RTCC 1377	broth dilution		MIC		4 µg/mL
CCCCCOc1ccc(-c2cc(-c3ccc(C(=O)N[C@H]4C[C@@H](O)[C@@H](O)NC(=O)[C@@H]5[C@@H](O)[C@@H](C)CN5C(=O)[C@H]([C@H](O)CC(N)=O)NC(=O)[C@H]([C@H](O)[C@@H](O)c5ccc(O)c(OS(=O)(=O)O)c5)NC(=O)[C@@H]5C[C@@H](O)CN5C(=O)[C@H]([C@@H](C)O)NC4=O)cc3)no2)cc1	Candida spp.	Fluconazole-resistant	broth dilution		MIC90		0.03 µg/mL
Clc1ccc(C(c2ccccc2)n2nnc3ccccc32)cc1	Candida dubliniensis		broth dilution		MFC		>256 µg/mL
Clc1ccc(COC(Cn2ccnc2)c2ccc(Cl)cc2Cl)c(Cl)c1	Candida albicans	10 isolates	broth dilution	pH 4	EC90		1 µg/mL
C=CCc1ccc(O)c(OC)c1	Candida tropicalis	2803	turbidity		MIC90		500 µg/mL
O/N=C\c1ccccc1Cl	Candida famata				MIC		1410 µM
OC(CCn1ccnc1)c1ccc(Br)cc1	Candida guilliermondii	RTCC1248	broth dilution		MIC		>64 µg/mL
CC(C)(O)c1cn(-c2ccc3ccccc3c2)nn1	Candida albicans	URM 4990	broth dilution		inhibition	2048 µg/mL	0%
COc1ccc(C(c2ccc(OC)cc2)n2cncn2)cc1	Candida dubliniensis		agar		MIC90		>256 µg/mL
O=C(CCn1ccnc1)c1cccc(C(O)c2ccc(Cl)cc2)c1	Candida guilliermondii	RTCC1248	broth dilution		MIC		16 µg/mL
O=C(c1ccccc1)C(c1ccccc1)n1nnc2ccccc21	Candida parapsilosis		agar		MIC90		>256 µg/mL
OC(CCn1ccnc1)c1cccc(C(O)c2ccc(Cl)c(Cl)c2)c1	Candida kefyr	RTCC 1019	broth dilution		MIC		4 µg/mL
C[C@@H]1CC(=O)N(c2ccc([N+](=O)[O-])cc2)C1=O	Candida lusitaniae	CCC 134-2000	broth dilution / turbidity		MIC		125 µg/mL
O=C1S/C(=C\c2ccoc2)C(=O)N1CC(O)(Cn1nccn1)c1ccc(F)cc1F	Candida colliculosa	Fluconazole-resistant 103			MIC80		74 µg/mL
c1ccc(C(c2ccccc2)n2cnc3ccccc32)cc1	Candida dubliniensis		broth dilution		MFC		>256 µg/mL
CC[C@@H]([C@H](C)O)n1ncn(-c2ccc(N3CCN(c4ccc(OC[C@@H]5CO[C@@](Cn6cncn6)(c6ccc(F)cc6F)C5)cc4)CC3)cc2)c1=O	Candida tropicalis	8685	broth dilution		MIC		0.03 µg/mL
C[C@@H]1CC(=O)N(c2ccc(F)cc2)C1=O	Candida lusitaniae	CCC 134-2000	broth dilution / turbidity		MIC		62.5 µg/mL

2 of the rows above, restated:

smiles,agent,strain or isolate,method,conditions,measure,tested at,result
C[C@@H]1CC(=O)N(c2ccc(F)cc2)C1=O,Candida lusitaniae,CCC 134-2000,broth dilution / turbidity,,MIC,,62.5 µg/mL
COc1ccc(-n2cc(C(C)(C)O)nn2)cc1,Candida parapsilosis,URM 4970,broth dilution,,MIC,,512 µg/mL